Measured values from several laboratories, pooled; numbers as filed in NIAID ChemDB.

Shared fields: target-level tests

Conditions beyond the fields shown may differ between rows. Blank or dashed fields: not listed here. ICn is the concentration giving n% inhibition.

compound	method	target	endpoint	strain	organism	result
COC(=O)CCS(=O)(=O)N(C)c1cc(C#N)cc(C2(C(C)C)C(C#N)=C(N)Oc3n[nH]c(C)c32)c1	absorbance	Serine hydroxymethyltransferase	IC50		Plasmodium falciparum	0.45 µM
Cc1c(-c2ccc(-c3ccc(OC(C)(C)C)cc3)nc2)[nH]c2ccccc2c1=O		PfNDH2	IC50		Plasmodium falciparum	0.014 µM
Cc1[nH]nc2c1C(c1cc(C#N)cc(-c3ccc(C(=O)O)cc3)c1)(C(C)C)C(C#N)=C(N)O2	absorbance	Serine hydroxymethyltransferase	IC50		Plasmodium falciparum	0.32 µM
O=C(/C=C/c1ccccc1)NCCCCNc1ccnc2cc(Cl)ccc12	fluorescence	Falcipain-2 (FP2)	IC50	Recombinant	Plasmodium falciparum	>50 µM
Nc1nc2c(ncn2CCOCCP(=O)(O)O)c(=O)[nH]1	absorbance	Hypoxanthine-guanine-xanthine phosphoribosyltransferase	Ki		Plasmodium falciparum	0.1 µM
CCN(CC)CCCC(C)NC(=O)c1ccc(-c2cc(C#N)cc(C3(C(C)C)C(C#N)=C(N)Oc4n[nH]c(C)c43)c2)s1	absorbance	Serine hydroxymethyltransferase	IC50		Plasmodium falciparum	0.35 µM
O=C(/C=C/c1ccc(Br)cc1)NCCCCNc1ccnc2cc(Cl)ccc12	fluorescence	Falcipain-2 (FP2)	IC50	Recombinant	Plasmodium falciparum	>50 µM
COc1cc(NC(C)CCCN)c2nccc(C)c2c1OCCCCCCCCc1ccccc1	nucleotide incorporation	Hematin	IC50		Plasmodium falciparum	98 µM
Cc1[nH]nc2c1C(c1cc(C#N)cc(N3CCCC3=O)c1)(C1CCC1)C(C#N)=C(N)O2	absorbance	Serine hydroxymethyltransferase	IC50		Plasmodium falciparum	0.59 µM
O=c1c2[nH]cnc2ncn1CCNCCP(=O)(O)O	absorbance	Hypoxanthine-guanine phosphoribosyltransferase	IC50		Plasmodium vivax	>250 µM
COc1cc(NC(C)CCCN)c2nccc(C)c2c1OCc1cccc(C(F)(F)F)c1	nucleotide incorporation	Hematin	IC50		Plasmodium falciparum	27 µM
O=C(/C=C/c1cccc(F)c1)NCCCCNc1ccnc2cc(Cl)ccc12	fluorescence	Falcipain-2 (FP2)	IC50	Recombinant	Plasmodium falciparum	>50 µM
CC(C)Cn1c(Sc2ccc(C#N)c([N+](=O)[O-])c2)nnc1-c1ccccc1Cl		Thioredoxin reductase	IC50		Plasmodium berghei	<4 µM
COc1cc(NC(C)CCCN)c2nccc(C)c2c1OCCCCCc1ccc(C)cc1	nucleotide incorporation	Hematin	IC50		Plasmodium falciparum	44 µM
Cc1ccc(Cl)c2nc(N3CCN(C(=O)c4ccc([N+](=O)[O-])o4)CC3)sc12		Thioredoxin reductase	IC50		Plasmodium falciparum	5.2 µM
CN1CCC(NC2=CCC3=NC=C(c4cnn(-c5ccc(F)cc5)c4)[N+]3=N2)CC1		Calcium-dependent protein kinase 1	IC50		Plasmodium falciparum	0.013 µM
CCOC(=O)COc1cccc(-c2cc(Cl)cc(C3(C4CCC4)C(C#N)=C(N)Oc4n[nH]c(C)c43)c2)c1	absorbance	Serine hydroxymethyltransferase	IC50		Plasmodium falciparum	0.2 µM
CO[C@H](C(=O)NO)[C@@H](CC(C)C)C(=O)N[C@H](C(=O)OC1CCCC1)c1ccccc1	fluorescence	PfM17LAP	Ki		Plasmodium falciparum	0.075 µM
COc1cc(NC(C)CCCN)c2nccc(C)c2c1OCCCCCc1ccccc1C(F)(F)F	nucleotide incorporation	Hematin	IC50		Plasmodium falciparum	630 µM
O=C(/C=C/c1cccc([N+](=O)[O-])c1)NCCCCNc1ccnc2cc(Cl)ccc12	fluorescence	Falcipain-2 (FP2)	IC50	Recombinant	Plasmodium falciparum	>50 µM
CN1CCC(NC2=CCC3=NC=C(c4cnn(-c5ncccc5F)c4)[N+]3=N2)CC1		Calcium-dependent protein kinase 1	IC50		Plasmodium falciparum	0.239 µM
Cc1[nH]nc2c1C(c1cc(Cl)cc(N3CCOCC3)c1)(C1CCC1)C(C#N)=C(N)O2	absorbance	Serine hydroxymethyltransferase	Ki		Plasmodium falciparum	0.482 µM
COc1cc(NC(C)CCCN)c2nccc(C)c2c1OCCCCc1ccccc1	nucleotide incorporation	Hematin	IC50		Plasmodium falciparum	700 µM
Cc1[nH]nc2c1C(c1cc(Cl)cc(-c3cccnc3)c1)(C1CCC1)C(C#N)=C(N)O2	absorbance	Serine hydroxymethyltransferase	Ki		Plasmodium falciparum	0.3 µM
CN1CCC(NC2=CCC3=NC=C(c4cnn(-c5ncccn5)c4)[N+]3=N2)CC1		Calcium-dependent protein kinase 1	IC50		Plasmodium falciparum	0.331 µM
Cc1[nH]nc2c1C(c1cc(Cl)cc(Cl)c1)(C1CC1)C(C#N)=C(N)O2	absorbance	Serine hydroxymethyltransferase	Ki		Plasmodium falciparum	0.376 µM
COc1ccc2c(c1)SC(C1CC1)C1=C(N2)c2ccccc2C1=O	fluorescence	NDH2	IC50		Plasmodium falciparum	>20 µM
O=C(c1ccc([N+](=O)[O-])o1)N1CCN(c2nc3c(Cl)cccc3s2)CC1		Thioredoxin reductase	IC50		Plasmodium falciparum	5.4 µM
COC(=O)c1ccc(-c2cc(Cl)cc(C3(C4CCC4)C(C#N)=C(N)Oc4n[nH]c(C)c43)c2)cc1	absorbance	Serine hydroxymethyltransferase	Ki		Plasmodium falciparum	0.21 µM